Structures are written as SMILES. The list shows a part of the results, in another mix than the full data. The source made the active and inactive calls.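 How the source made its calls: active means inhibition above the mean inhibition across all screened compounds plus 3 SD (cut at about 11% in these data); inactive means the rest.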

The chains behind the UniProt entries cited, without tags or fusion partners. Where a name states a change or a piece, a line headed by the entry shows the natural chain unless it says otherwise.
UniProt P86926: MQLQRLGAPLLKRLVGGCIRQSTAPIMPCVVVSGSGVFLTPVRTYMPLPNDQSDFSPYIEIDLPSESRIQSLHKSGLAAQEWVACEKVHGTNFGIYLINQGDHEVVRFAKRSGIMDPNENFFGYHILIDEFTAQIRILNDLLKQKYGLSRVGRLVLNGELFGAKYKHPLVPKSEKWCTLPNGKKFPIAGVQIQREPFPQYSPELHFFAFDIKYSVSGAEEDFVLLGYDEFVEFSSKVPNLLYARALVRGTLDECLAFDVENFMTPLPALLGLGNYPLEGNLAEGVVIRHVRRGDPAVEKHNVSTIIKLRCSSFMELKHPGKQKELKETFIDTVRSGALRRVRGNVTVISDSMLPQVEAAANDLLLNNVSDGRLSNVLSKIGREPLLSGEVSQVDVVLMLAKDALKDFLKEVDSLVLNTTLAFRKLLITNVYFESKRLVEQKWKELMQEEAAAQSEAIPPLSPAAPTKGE

The record followed here is PubChem BioAssay AID1117264 (The Scripps Research Institute Molecular Screening Center, 2014).

This experiment addresses RNA-editing ligase 1, mitochondrial (Trypanosoma brucei brucei) (UniProt P86926). In words: TbREL1 RNA ligase inhibitors, primary screen, biochemical, FRET fluorescence (AID 1117264).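 Further: 0% = plate median of test wells and 100% = NSC42067 control.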 Conditions: TbREL1 RNA ligation, at 9.66 µM, hits give high values.
In general, inhibition refers to the relative decrease from the control value, in per cent. In the case of `CCN(N=Nc1nonc1N)c1nonc1N`, the inhibition is inactive: -0.23%.

In the case of `CN1CCCC(OC(=O)C(c2ccccc2)c2ccccc2)C1` (stereo unspecified), the inhibition was inactive: -2.08%. Then `NC(=O)c1cc([N+](=O)[O-])cc([N+](=O)[O-])c1N`, with inactive: -0.02%; and `CC(=O)N1C2C3N(C(C)=O)C1C1N(C(C)=O)C(C(N1C(C)=O)N3C(C)=O)N2C(C)=O`, with inactive: -1.21%; and `COc1ccc(C2=NCC(CBr)S2)cc1` (stereo unspecified), with inactive: 6.83%. Turning to `CC(C)c1nc(Nc2ccccc2)n(P(=O)(N(C)C)N(C)C)n1`, the inhibition was inactive: -0.94%.

With `Nc1ccc([As](=O)(O)c2ccc(N)cc2)cc1`, the inhibition is inactive: 3.05%. For `O=P1(N(CCCl)CCCl)OCCCS1` (stereo unspecified) the value was inactive: 1.93%; for `CC(C)(C)C(=O)NC(Sc1ccncn1)C(Cl)(Cl)Cl` (stereo unspecified), inactive: -6.94%; for `O=C(OC1CN2CCC1CC2)c1cccc(Cl)c1` (stereo unspecified), inactive: 0.71%. For `c1nnnn1CCn1cnnn1` the value was inactive: 3.23%; for `O=P1(Nc2nc3ccc(Cl)cc3s2)COc2ccccc2O1` (stereo unspecified), inactive: -0.34%. Regarding `CC(=O)Nc1ccc([As](=O)(O)O)c(O)c1`, the inhibition is inactive: -1.72%.

As for `C[C@@H]1C=CCP(=O)(Oc2ccccc2)O1` (stereo partly specified), the inhibition is inactive: 4.91%. Then `CC(NC(=O)COC(=O)C(O)(c1ccccc1)c1ccccc1)c1ccccc1` (stereo unspecified), with inactive: -1.81%. Regarding `CN(C)C(=O)c1cc([N+](=O)[O-])cc2c1-c1c(cc([N+](=O)[O-])cc1[N+](=O)[O-])C2=O`, the inhibition was inactive: 4.99%. Turning to `O=[As](O)(O)c1cccnc1`, the inhibition is inactive: 1.91%. With `COc1cc(C(=O)NCC2(N3CCOCC3)CCCCC2)cc(Cl)c1OC(C)C`, the inhibition was inactive: -0.97%. Regarding `CC(C)/C=N\N=C(\N)N[N+](=O)[O-]`, the inhibition is inactive: 0.11%. In the case of `Cc1nn(-c2ccccc2)c2c1P(=O)(N1CCOCC1)N(C)C(c1ccccc1)=N2` (stereo unspecified), the inhibition was inactive: -0.04%. For `Cc1ccc(C(=O)OC2CN3CCC2CC3)cc1` (stereo unspecified) the value was inactive: 6.04%. Regarding `Nc1cccc([As](=O)(O)c2ccccc2)c1`, the inhibition was inactive: 0.68%. For `Cc1ccc(OCC(=O)OC2CN3CCC2CC3)cc1` (stereo unspecified) the value was inactive: 1.06%; for `O=P1(Nc2ccc(Br)cn2)COc2ccccc2OC1`, inactive: 3.39%. For `Cc1cc(SC(NC(=O)c2ccccc2)C(Cl)(Cl)Cl)nc(C(C)C)n1` (stereo unspecified) the value was inactive: -3.3%; for `CCOC(=O)Nc1ccc([As](=O)(O)O)c(O)c1`, inactive: 1.05%; for `O=C(OC1CN2CCC1CC2)c1cccc([N+](=O)[O-])c1` (stereo unspecified), inactive: -0.34%. For `CCOC(=O)c1ccc(NC(=O)C(C)(CCl)SC)cc1` (stereo unspecified) the value was inactive: 0.26%; for `O=C(OC1CN2CCC1CC2)C12CC3CC(CC(C3)C1)C2` (stereo unspecified), inactive: 4.27%; for `[N-]=[N+]=NC1CCCCC1NC(=O)c1cc([N+](=O)[O-])cc([N+](=O)[O-])c1` (stereo unspecified), inactive: 1.25%. With `CCN(CC)C(=S)SC(NC=O)C(Cl)(Cl)Cl` (stereo unspecified), the inhibition was inactive: 4.49%.
